This assay concerns the target mouse synaptosomes (synaptosome preparation carrying the BoNT/A acceptor complex).

Experimental findings from patent US20080171347A1 are described below.

On to “active botulinum neurotoxin type A (BoNT/A) (from UniProt P0DPI1 2-1296)”, for which the percent binding inhibition was over 20.
